## Share of PSTVd loop 15 variants by leaf site

The pool varies loop 15 of the PSTVd intermediate strain in the pattern GGAAACCGNNNNNNC; wild type is GGAAACCGCUACUAC (upper and lower strand joined, each 5' to 3', the first 7 letters being the upper strand, closing pairs included).

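A pool of all variants was put on leaves of three Nicotiana benthamiana plants. Progeny were sequenced from the inoculated region (day 5), the margin of the inoculated leaf (day 10) and systemic leaves (day 12).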

Numbers give reads per thousand; 0 = not seen among the reads, higher = more abundant.
Each site shows the three plants.
"Pool" is the share in the plasmid pool used as inoculum, on the same scale.
The inoculated region was read from the minus strand, the other sites from the plus strand.
Wild type was 33.9 per thousand in the pool and the most common sequence in every sample (inoculated region 202, 200, 159; leaf margin 724, 746, 710; systemic leaves 856, 883, 880).

| sequence | pool | inoculated region | leaf margin | systemic leaves |
|---|---|---|---|---|
| GGAAACCGUUAGCGC | 0.208 | 0.278 0.289 0.419 | 0.178 0.200 0.180 | 0.0966 0 0 |
| GGAAACCGUUAGCUC | 0.208 | 0.311 0.305 0.381 | 0.146 0.0445 0.220 | 0 0.0756 0.182 |
| GGAAACCGUUAGGAC | 0.112 | 0.426 0.386 0.438 | 0.0647 0.0891 0.160 | 0.0322 0.0303 0.182 |
| GGAAACCGUUAGGCC | 0.144 | 0.311 0.418 0.343 | 0.0647 0.0891 0.160 | 0.129 0 0 |
| GGAAACCGUUAGGGC | 0.144 | 0.262 0.193 0.286 | 0.129 0.0668 0.180 | 0.0322 0.0151 0.0912 |
| GGAAACCGUUAGGUC | 0.176 | 0.328 0.321 0.286 | 0.162 0.178 0.200 | 0.0805 0.0151 0.114 |
| GGAAACCGUUAGUAC | 0.352 | 0.229 0.289 0.305 | 0.0647 0.0891 0.0801 | 0.0644 0 0.0228 |
| GGAAACCGUUAGUCC | 0.240 | 0.295 0.257 0.419 | 0.113 0.134 0.120 | 0.0644 0.0605 0.0912 |
| GGAAACCGUUAGUGC | 0.192 | 0.197 0.369 0.381 | 0.113 0.111 0.100 | 0.0322 0 0 |
| GGAAACCGUUAGUUC | 0.240 | 0.262 0.257 0.419 | 0.0808 0.111 0.180 | 0.0322 0 0 |
| GGAAACCGUUAUAAC | 0.272 | 0.328 0.450 0.571 | 0.162 0.0223 0.160 | 0.0161 0.0454 0.0912 |
| GGAAACCGUUAUACC | 0.304 | 0.213 0.418 0.324 | 0.0808 0.0891 0.240 | 0.0644 0 0 |
| GGAAACCGUUAUAGC | 0.256 | 0.295 0.353 0.343 | 0.0970 0.111 0.0801 | 0.0161 0.0454 0.114 |
| GGAAACCGUUAUAUC | 0.192 | 0.475 0.321 0.381 | 0.146 0 0.100 | 0.0483 0.0605 0.0456 |
| GGAAACCGUUAUCAC | 0.272 | 0.393 0.257 0.362 | 0.113 0.0223 0.160 | 0 0.121 0.0684 |
| GGAAACCGUUAUCCC | 0.176 | 0.180 0.112 0.133 | 0 0 0 | 0 0 0 |
| GGAAACCGUUAUCGC | 0.352 | 0.278 0.305 0.438 | 0.0970 0.223 0.120 | 0.0161 0 0 |
| GGAAACCGUUAUCUC | 0.288 | 0.426 0.321 0.248 | 0.162 0.0668 0.0801 | 0.0161 0.106 0.0684 |
| GGAAACCGUUAUGAC | 0.240 | 0.229 0.353 0.514 | 0.129 0.0668 0.120 | 0.0644 0 0 |
| GGAAACCGUUAUGCC | 0.288 | 0.131 0.193 0.133 | 0 0.0223 0 | 0 0 0 |
| GGAAACCGUUAUGGC | 0.208 | 0.0655 0.112 0.0762 | 0.0485 0 0.0200 | 0 0 0 |
| GGAAACCGUUAUGUC | 0.272 | 0.115 0.0643 0.0571 | 0 0 0.0200 | 0 0 0 |
| GGAAACCGUUAUUAC | 0.160 | 0.311 0.321 0.457 | 0.0647 0.111 0.100 | 0 0 0 |
| GGAAACCGUUAUUCC | 0.0960 | 0.311 0.273 0.343 | 0.0808 0.0891 0.160 | 0.0805 0.0303 0.137 |
| GGAAACCGUUAUUGC | 0.336 | 0.409 0.337 0.400 | 0.113 0.0668 0.180 | 0.0322 0.0454 0.160 |
| GGAAACCGUUAUUUC | 0.352 | 0.311 0.337 0.362 | 0.146 0.0223 0.180 | 0.0805 0.0605 0.0684 |
| GGAAACCGUUCAAAC | 0.272 | 0.213 0.466 0.305 | 0.129 0.0445 0.120 | 0.0161 0 0 |
| GGAAACCGUUCAACC | 0.304 | 0.0328 0.145 0.114 | 0 0 0.0401 | 0 0 0 |
| GGAAACCGUUCAAGC | 0.224 | 0.115 0.0803 0.0571 | 0.0323 0 0.0401 | 0.0161 0 0.0228 |
| GGAAACCGUUCAAUC | 0.192 | 0.246 0.289 0.209 | 0.146 0.0668 0.140 | 0.0322 0 0 |
| GGAAACCGUUCACAC | 0.224 | 0.328 0.337 0.286 | 0.113 0.0668 0.120 | 0.0644 0.106 0.0684 |
| GGAAACCGUUCACCC | 0.160 | 0.0164 0.129 0.114 | 0.0323 0 0.0200 | 0 0 0 |
| GGAAACCGUUCACGC | 0.192 | 0.147 0.112 0.0952 | 0 0 0 | 0.0161 0 0 |
| GGAAACCGUUCACUC | 0.304 | 0.311 0.257 0.381 | 0.0970 0.156 0.180 | 0.0322 0 0 |
| GGAAACCGUUCAGAC | 0.128 | 0.131 0.0482 0.0952 | 0.0162 0.0223 0.0401 | 0 0 0 |
| GGAAACCGUUCAGCC | 0.288 | 0.164 0.0482 0.0952 | 0 0 0 | 0.0161 0 0.0228 |
| GGAAACCGUUCAGGC | 0.256 | 0.0491 0.0482 0.0952 | 0 0 0 | 0 0 0 |
| GGAAACCGUUCAGUC | 0.176 | 0.0655 0.177 0.0190 | 0.0162 0 0.0401 | 0 0 0 |
| GGAAACCGUUCAUAC | 0.176 | 0.442 0.594 0.495 | 0.0485 0.0891 0.160 | 0.0483 0.0151 0.0912 |
| GGAAACCGUUCAUCC | 0.160 | 0.0819 0.112 0.0952 | 0 0 0.0200 | 0 0 0 |
| GGAAACCGUUCAUGC | 0.240 | 0.393 0.466 0.495 | 0.0808 0.134 0.200 | 0.0483 0 0 |
| GGAAACCGUUCAUUC | 0.288 | 0.360 0.418 0.457 | 0.0970 0.134 0.0601 | 0.0644 0.0908 0.0684 |
| GGAAACCGUUCCAAC | 0.256 | 0.246 0.386 0.228 | 0.113 0.0891 0.0801 | 0.0161 0 0 |
| GGAAACCGUUCCACC | 0.288 | 0.0819 0.129 0.133 | 0.0162 0 0.0200 | 0 0 0 |
| GGAAACCGUUCCAGC | 0.320 | 0.0491 0.0964 0.0952 | 0.0162 0 0.0401 | 0 0 0 |
| GGAAACCGUUCCAUC | 0.112 | 0.295 0.257 0.305 | 0.0323 0 0 | 0 0 0 |
| GGAAACCGUUCCCAC | 0.160 | 0.295 0.450 0.419 | 0.194 0.111 0.160 | 0.0161 0 0 |
| GGAAACCGUUCCCCC | 0.192 | 0.0328 0.0964 0.171 | 0 0 0 | 0.0322 0 0 |
| GGAAACCGUUCCCGC | 0.128 | 0.115 0.0643 0.114 | 0.0323 0 0.0200 | 0 0 0 |
| GGAAACCGUUCCCUC | 0.160 | 0.115 0 0.171 | 0 0 0 | 0 0 0 |
| GGAAACCGUUCCGAC | 0.432 | 0.115 0.129 0.0571 | 0.0323 0 0.0200 | 0 0 0 |
| GGAAACCGUUCCGCC | 0.288 | 0.0655 0.0803 0.133 | 0.0323 0.0223 0.0200 | 0 0 0 |
| GGAAACCGUUCCGGC | 0.240 | 0.0819 0.0803 0.0762 | 0.0162 0 0 | 0 0 0 |
| GGAAACCGUUCCGUC | 0.224 | 0.131 0.112 0.0952 | 0 0 0.0401 | 0.0161 0 0 |
| GGAAACCGUUCCUAC | 0.272 | 0.344 0.353 0.324 | 0.0970 0.0891 0.200 | 0.0161 0.0303 0.0456 |
| GGAAACCGUUCCUCC | 0.352 | 0.0819 0.0643 0.133 | 0 0 0.0200 | 0 0 0 |
| GGAAACCGUUCCUGC | 0.176 | 0.278 0.225 0.495 | 0.113 0.0445 0.0601 | 0.0805 0 0 |
| GGAAACCGUUCCUUC | 0.208 | 0.295 0.273 0.267 | 0.178 0.134 0.0401 | 0.0483 0.0605 0.0456 |
| GGAAACCGUUCGAAC | 0.256 | 0.262 0.337 0.305 | 0.146 0.0891 0.180 | 0.0161 0.0454 0.0684 |
| GGAAACCGUUCGACC | 0.208 | 0.0328 0.0643 0.133 | 0 0 0.0200 | 0.0161 0 0 |
| GGAAACCGUUCGAGC | 0.224 | 0.295 0.321 0.324 | 0 0 0 | 0.0161 0 0 |
| GGAAACCGUUCGAUC | 0.192 | 0.262 0.369 0.248 | 0.129 0.200 0.100 | 0.0805 0 0 |
| GGAAACCGUUCGCAC | 0.240 | 0.229 0.273 0.514 | 0.0970 0.0668 0.0801 | 0.0322 0 0 |
| GGAAACCGUUCGCCC | 0.192 | 0.0983 0.0803 0.190 | 0.0162 0.0445 0.0401 | 0 0 0 |
| GGAAACCGUUCGCGC | 0.256 | 0.0983 0.0482 0.0571 | 0 0.0223 0.0200 | 0.0161 0 0 |
| GGAAACCGUUCGCUC | 0.208 | 0.0491 0.0482 0.114 | 0 0 0 | 0 0 0 |
| GGAAACCGUUCGGAC | 0.320 | 0.328 0.369 0.381 | 0.129 0.0891 0.180 | 0.0322 0.0454 0.0912 |
| GGAAACCGUUCGGCC | 0.192 | 0.0819 0.129 0.133 | 0 0 0.0200 | 0.0161 0 0 |
| GGAAACCGUUCGGGC | 0.256 | 0.0655 0.0643 0.133 | 0.0162 0.0223 0 | 0 0 0 |
| GGAAACCGUUCGGUC | 0.320 | 0.278 0.129 0.457 | 0.0808 0.0445 0.120 | 0.0483 0 0 |
| GGAAACCGUUCGUAC | 0.304 | 0.344 0.241 0.381 | 0.194 0.0891 0.0801 | 0.0161 0 0 |
| GGAAACCGUUCGUCC | 0.192 | 0.246 0.289 0.362 | 0.162 0.111 0.180 | 0.0322 0.0454 0.0684 |
| GGAAACCGUUCGUGC | 0.256 | 0.246 0.402 0.457 | 0.113 0.0891 0.160 | 0.0644 0.0454 0.0456 |

The opening 8 entries, copied out:

sequence	pool	inoculated region	leaf margin	systemic leaves
GGAAACCGUUAGCGC	0.208	0.278 0.289 0.419	0.178 0.200 0.180	0.0966 0 0
GGAAACCGUUAGCUC	0.208	0.311 0.305 0.381	0.146 0.0445 0.220	0 0.0756 0.182
GGAAACCGUUAGGAC	0.112	0.426 0.386 0.438	0.0647 0.0891 0.160	0.0322 0.0303 0.182
GGAAACCGUUAGGCC	0.144	0.311 0.418 0.343	0.0647 0.0891 0.160	0.129 0 0
GGAAACCGUUAGGGC	0.144	0.262 0.193 0.286	0.129 0.0668 0.180	0.0322 0.0151 0.0912
GGAAACCGUUAGGUC	0.176	0.328 0.321 0.286	0.162 0.178 0.200	0.0805 0.0151 0.114
GGAAACCGUUAGUAC	0.352	0.229 0.289 0.305	0.0647 0.0891 0.0801	0.0644 0 0.0228
GGAAACCGUUAGUCC	0.240	0.295 0.257 0.419	0.113 0.134 0.120	0.0644 0.0605 0.0912

With 43,870-66,106 reads a sample, very low values are single reads.
The authors trace changes outside the varied positions to PCR and sequencing errors or to mutation in the plant; presence does not show that a variant is infectious alone.

Source: Wu et al. 2024 (doi:10.1371/journal.ppat.1012142), supplementary data.